Results of unrelated studies side by side (data: NIAID ChemDB).

Common to all: cytotoxicity tests; cells: MT-4; endpoint: CC50

Conditions beyond the fields shown may differ between rows. a–b is a range or a potency band. CCn: concentration that lowers growth or viability of the cells by n%.

SMILES | result
COc1c(CCC(C)C)c(O)cc2c1C[C@H](c1ccc(O)c(CCC(C)C)c1O)CO2 | 26 µg/mL
Cc1csc(NC(=S)NCCc2ccccc2)n1 | 360 µM
CC(C)(C)[Si](C)(C)OC[C@H]1O[C@@H](n2cnc3c(=O)n(CC(=O)O)cnc32)[C@H](O[Si](C)(C)C(C)(C)C)[C@@H]1O | 106 µM
Cc1cn([C@H]2C[C@H](N=[N+]=[N-])[C@@H](COC(=O)c3ccc[n+](C)c3)O2)c(=O)[nH]c1=O | 47 µM
Nc1ncnc2c1ncn2[C@]1(c2ccccc2)C[C@@H]1COCP(=O)(O)O | >100 µM
Nc1nc(N)c2ncn(CCOCP(=O)(O)O)c2n1 | 18 µM
CCc1cc(NCc2nc3c(Cl)ccc(Cl)c3o2)c(=O)[nH]c1C | 59 µM
Nc1ccn([C@H]2CC[C@@H](CO)O2)c(=O)n1 | 160 µM
O=S(=O)(O)OCC1OC(O)C(OS(=O)(=O)O)C(OS(=O)(=O)O)C1OC1OC(COS(=O)(=O)O)C(OC2OC(COS(=O)(=O)O)C(OC3OC(COS(=O)(=O)O)C(OC4OC(COS(=O)(=O)O)C(OS(=O)(=O)O)C(OS(=O)(=O)O)C4OS(=O)(=O)O)C(OS(=O)(=O)O)C3OS(=O)(=O)O)C(OS(=O)(=O)O)C2OS(=O)(=O)O)C(OS(=O)(=O)O)C1OS(=O)(=O)O | >1000 µg/mL
CC(C)(C)[Si](C)(C)OC[C@H]1O[C@@H](n2ccc(=O)n(CC(=O)O)c2=O)[C@H](O[Si](C)(C)C(C)(C)C)[C@@H]1O | 21 µM
CN(C)c1cccc2c(S(=O)(=O)N3CCSC3c3ccccn3)cccc12 | >1000 µM
O=c1[nH]cnc2c1ncn2CCOCP(=O)(O)O | >625 µM
CN(C)C(=O)Oc1nsnc1-c1ccccc1 | 210 µM
CC(C)(C)[Si](C)(C)OC[C@@H]1CC[C@H](n2cnc3c(=O)n(CC(=O)OCc4ccccc4)cnc32)O1 | 29.3 µM
Cc1cc(C)cc(S(=O)(=O)c2c(C(=O)NCc3ccccc3)[nH]c3ccc(Br)cc23)c1 | >1 µM
OC[C@@H]1CC[C@H](n2cnc3c(=S)nc[nH]c32)O1 | 0.15 µM
C=CCN1C(=O)c2cccn2S(=O)(=O)c2ccc(Cl)cc21 | 32 µM
CC(C)=CCc1cc([C@@H]2CC(=O)c3c(O)cc(O)cc3O2)cc(O)c1O | 26 µg/mL
Nc1nc(=O)n([C@@H]2CS[C@H](CO)O2)cc1F | >100 µg/mL
C=C[C@@]1(CO)CO[C@H](n2ccc(=O)[nH]c2=O)C1 | >100 µg/mL
O=c1[nH]cnc2c1ncn2[C@H]1CC[C@@H](CO)O1 | 568 µM
Nc1ncnc2ncn(CCOCP(=O)(O)O)c12 | >300 µg/mL
Nc1ncnc2c1ncn2[C@]1(c2ccccc2)C[C@@H]1CO | >100 µM
Nc1nc2c(ncn2[C@@H]2CS[C@@H](CO)S2)c(=O)[nH]1 | >100 µg/mL
CC1(C)[C@@H](O[C@H]2O[C@H](C(=O)O)[C@@H](O)[C@H](O)[C@H]2O[C@@H]2O[C@H](C(=O)O)[C@@H](O)[C@H](O)[C@H]2O)CC[C@]2(C)[C@H]3C(=O)C=C4[C@@H]5C[C@@](C)(C(=O)O)CC[C@]5(C)CC[C@@]4(C)[C@]3(C)CC[C@@H]12 | 756 µM
COc1ccc(Br)cc1CCNC(=S)Nc1nccs1 | 107 µM
Cc1cn([C@H]2C=C[C@@H](CO[Si](C)(C)C(C)(C)C)O2)c(=O)n(CC(=O)O)c1=O | 52 µM
Nc1nc(N)c2ncn(C[C@@H](CO)OCP(=O)(O)O)c2n1 | 90 µM
COc1cc(C2SCCN2S(=O)(=O)c2cccc3c(N(C)C)cccc23)ccc1O | 82.56 µM
Cc1cn([C@H]2C[C@H](N=[N+]=[N-])[C@@H](CO)O2)c(=O)[nH]c1=O | 12 µM
O=C1Nc2cc(Cl)ccc2S(=O)(=O)n2cccc21 | >300 µM
CC(=O)c1ccc(C)cc1NC(C(N)=O)c1c(Cl)cccc1Cl | 137 µM
Cc1cc(C)cc(S(=O)(=O)c2c(C(=O)NCCOc3ccccc3)[nH]c3ccc(Cl)cc23)c1 | >1 µM
COc1cc([C@H]2c3c(cc(OC)c(OC)c3OC)C[C@@H](C)[C@@H]2C)cc(C)c1OC | 34 µM
Cc1cn([C@@H]2O[C@H](CO[Si](C)(C)C(C)(C)C)[C@@]3(OS(=O)(=O)C=C3N)[C@H]2O[Si](C)(C)C(C)(C)C)c(=O)nc1N(C)C | 62 µM
Cc1cn([C@H]2C[C@H](N=[N+]=[N-])[C@@H](CO)O2)c(=O)[nH]c1=O | 27–250 µM
CCc1cn([C@@H]2O[C@H](CO[Si](C)(C)C(C)(C)C)[C@@H](O)[C@H]2O[Si](C)(C)C(C)(C)C)c(=O)n(CC(=O)O)c1=O | 4.7 µM
Nc1ccn([C@]2(c3ccccc3)C[C@@H]2CO)c(=O)n1 | >100 µM
CCCC(C)(C)[Si](C)(C)OC[C@H]1O[C@@H](n2cc(C)c(=O)n(CC(=O)O)c2=O)[C@H](O[Si](C)(C)C(C)(C)CCC)[C@@H]1O | 18 µM
CC(C)=CCc1c(O)cc(O)c2c1CCc1cc(O)c(O)cc1-2 | 10 µg/mL
Cc1ccc(NC(=S)NCCc2ccccc2)nc1 | 368 µM
CN1C(=O)c2cccn2S(=O)(=O)c2ccccc21 | 300 µM
CN(C)C(=O)Oc1nsnc1-c1ccc(Cl)cc1Cl | 77 µM
Cc1cc(C)cc(S(=O)(=O)c2c(C(=O)NCCN3CCCC3)[nH]c3ccc(Cl)cc23)c1 | >1 µM
O=S(=O)(c1cccc2ccccc12)N1CCSC1c1cccnc1 | >1000 µM
Nc1nc(=O)n([C@H]2CS[C@@H](CO)S2)cc1F | >100 µg/mL
Cc1cn([C@H]2C[C@H](N=[N+]=[N-])[C@@H](CO)O2)c(=O)[nH]c1=O | 1.5 µg/mL
Cc1cn([C@H]2C[C@H](N=[N+]=[N-])[C@@H](CO)O2)c(=O)[nH]c1=O | 2.89 µg/mL
CN(C)C(=O)Oc1nsnc1-c1cc(Cl)ccc1Cl | 111 µM
O=S(=O)(O)OCC1OC(O)C(OS(=O)(=O)O)C(OC2OC(COS(=O)(=O)O)C(OS(=O)(=O)O)C(OC3OC(COS(=O)(=O)O)C(OS(=O)(=O)O)C(OC4OC(COS(=O)(=O)O)C(OS(=O)(=O)O)C(OC5OC(COS(=O)(=O)O)C(OS(=O)(=O)O)C(OS(=O)(=O)O)C5OS(=O)(=O)O)C4OS(=O)(=O)O)C3OS(=O)(=O)O)C2OS(=O)(=O)O)C1OS(=O)(=O)O | >1000 µg/mL
CS(=O)(=O)OCC1Nc2ccccc2S(=O)(=O)n2cccc21 | 130 µM
COCOc1ccc(/C=C/C(=O)c2c(OCOC)cc(OCOC)c(CC=C(C)C)c2O)cc1OCOC | >100 µg/mL
Cc1csc(NC(=S)NCCc2c(F)cccc2F)n1 | 128 µM
O=C1Nc2ccccc2S(=O)(=O)n2cccc21 | >300 µM
CC(C)(C)[Si](C)(C)OC[C@H]1O[C@@H](n2ccc(=O)n(CC(=O)O)c2=O)[C@H](O)[C@@H]1O[Si](C)(C)C(C)(C)C | 20 µM
Cc1cc(C)cc(S(=O)(=O)c2c(C(=O)NCN3CCOCC3)[nH]c3ccc(Cl)cc23)c1 | >1 µM
Nc1nc2c(ncn2CC(CO)OCP(=O)(O)O)c(=O)[nH]1 | 25 µM
OC[C@@H]1SC[C@H](n2cnc3c(Cl)ncnc32)S1 | 10 µg/mL
CC(C)N1C(=O)c2cccn2S(=O)(=O)c2cc(Cl)ccc21 | >300 µM
Nc1nc(Cl)c2ncn([C@@H]3CS[C@@H](CO)S3)c2n1 | >100 µg/mL
CCN1C(=O)N(Cc2ccccc2Cl)S(=O)(=O)c2cscc21 | 540 µM
CCCCCCCCCCCCCCCCCCOC1OC(COS(=O)(=O)O)C(OC2OC(COS(=O)(=O)O)C(OC3OC(COS(=O)(=O)O)C(OC4OC(COS(=O)(=O)O)C(OC5OC(COS(=O)(=O)O)C(OC6OC(COS(=O)(=O)O)C(OS(=O)(=O)O)C(OS(=O)(=O)O)C6O)C(OS(=O)(=O)O)C5O)C(O)C4OS(=O)(=O)O)C(O)C3OS(=O)(=O)O)C(OS(=O)(=O)O)C2O)C(OS(=O)(=O)O)C1O | 550 µg/mL
Cc1cn([C@]2(c3ccccc3)C[C@@H]2COCP(=O)(O)O)c(=O)[nH]c1=O | >100 µM
CN1C(=O)N(Cc2ccccc2)S(=O)(=O)c2cscc21 | 690 µM
CCN(C)C(=O)Oc1nsnc1-c1c(Cl)cccc1Cl | 29 µM
Nc1ccn([C@]2(c3ccccc3)C[C@@H]2COCP(=O)(O)O)c(=O)n1 | >100 µM
CC(C)=CCN1Cc2cc(Cl)cc3[nH]c(=S)n(c23)C[C@@H]1C | 47 µM
Nc1ccn([C@H]2CC[C@@H](CO)O2)c(=O)n1 | 219 µM
Cc1cn([C@H]2C[C@H](N=[N+]=[N-])[C@@H](CO)O2)c(=O)[nH]c1=O | >6.43 µM
O=C1CN=C(c2ccc[nH]2)c2cc(Cl)ccc2N1 | 3.5 µM
CNC(=O)CSP(=O)(NCC(=O)OC)OC[C@H]1O[C@@H](n2cc(C)c(=O)[nH]c2=O)C[C@@H]1F | 2500 µM
CSc1nc(N)nc2c1ncn2[C@H]1CC[C@@H](CO)O1 | 181.2 µM
O=c1ccn(/C=C/[C@H](O)[C@H](O)CO)c(=O)[nH]1 | 500 µM
Cc1cn([C@@H]2O[C@H](CO[Si](C)(C)C(C)(C)C)[C@@H](O)[C@H]2O[Si](C)(C)C(C)(C)C)c(=O)n(CCO)c1=O | 46 µM
O=c1[nH]cnc2c1ncn2[C@H]1CS[C@@H](CO)S1 | >100 µg/mL
Cc1cn([C@H]2C[C@H](N=[N+]=[N-])[C@@H](CO)O2)c(=O)[nH]c1=O | >93.5 µM
O=C1N(Cc2ccccc2)c2cscc2S(=O)(=O)N1Cc1ccccc1 | 510 µM
C[C@H]1[C@H](CO)C=C[C@@H]1n1cnc2c(N)ncnc21 | >100 µg/mL
CCCCN(CC)C(=O)Oc1nsnc1-c1c(Cl)cccc1Cl | 44 µM
Cc1cn([C@H]2C=C[C@@H](CO)O2)c(=O)[nH]c1=O | 43.2 µM
CN(C)C(=O)Oc1nsnc1-c1c(Cl)cccc1Cl | 190 µM
Nc1ccn([C@H]2CC[C@@H](CO)O2)c(=O)n1 | 199.7 µM

A second listing of 9 rows from above:

SMILES,result
Nc1nc(=O)n([C@H]2CS[C@@H](CO)S2)cc1F,>100 µg/mL
Nc1ccn([C@H]2CC[C@@H](CO)O2)c(=O)n1,160 µM
Nc1nc(N)c2ncn(CCOCP(=O)(O)O)c2n1,18 µM
Cc1cc(C)cc(S(=O)(=O)c2c(C(=O)NCCOc3ccccc3)[nH]c3ccc(Cl)cc23)c1,>1 µM
Nc1ccn([C@H]2CC[C@@H](CO)O2)c(=O)n1,199.7 µM
Nc1nc2c(ncn2CC(CO)OCP(=O)(O)O)c(=O)[nH]1,25 µM
CCCCCCCCCCCCCCCCCCOC1OC(COS(=O)(=O)O)C(OC2OC(COS(=O)(=O)O)C(OC3OC(COS(=O)(=O)O)C(OC4OC(COS(=O)(=O)O)C(OC5OC(COS(=O)(=O)O)C(OC6OC(COS(=O)(=O)O)C(OS(=O)(=O)O)C(OS(=O)(=O)O)C6O)C(OS(=O)(=O)O)C5O)C(O)C4OS(=O)(=O)O)C(O)C3OS(=O)(=O)O)C(OS(=O)(=O)O)C2O)C(OS(=O)(=O)O)C1O,550 µg/mL
O=C1Nc2cc(Cl)ccc2S(=O)(=O)n2cccc21,>300 µM
O=S(=O)(O)OCC1OC(O)C(OS(=O)(=O)O)C(OC2OC(COS(=O)(=O)O)C(OS(=O)(=O)O)C(OC3OC(COS(=O)(=O)O)C(OS(=O)(=O)O)C(OC4OC(COS(=O)(=O)O)C(OS(=O)(=O)O)C(OC5OC(COS(=O)(=O)O)C(OS(=O)(=O)O)C(OS(=O)(=O)O)C5OS(=O)(=O)O)C4OS(=O)(=O)O)C3OS(=O)(=O)O)C2OS(=O)(=O)O)C1OS(=O)(=O)O,>1000 µg/mL